Measured values taken from publication PMC9020739, “Identification of a two-component regulatory system involved in antimicrobial peptide resistance in Streptococcus pneumoniae” (PLoS Pathogens, 2022).
For at least one entry, the source does not settle the construct or the ends of the probe.

Target: RR01-D52E (response regulator of TCS01, phosphomimetic) (UniProt Q8DNX6)
Test: EMSA
Details: 2.5 ug protein, 100 ng DNA (>140 molar excess); recombinant protein; residues 1-225; label: none (GelRed stain); probe letters rebuilt from the primers and the genome

Sequence: ATATTTCACCCAATCTTACAAAAATGTAAGATTAAAGTCTCTTTTGTAAGGTTAGGTTATGGCAAGCGGTCTTTTTTTGATGTAAACTAGACTCATAAAGAACAAAGGAGTAACATCATGAAACAAATCTTACATAAGAAAACTAGAAAACCAAGTCACAAAGAAATTGAGCGCGTTCAGCTGGGATGCACTATGATGCAAGCTACATTTCATTTGATGGGATATTAAGAAAGGAGATTCTCATGACACTTTTAGATGTAAAACACGTTCAAAAAATTTATAAAACACGTTTTCAGGGCAACCAAGTAGAAGCCCTCAAGGATATTCACTTTACCGTCGAAAAGGGTGACTACGTTGCCATCATGGGTGAGTCTGGTTCTGGTAAATCAACTCTTCTCAATATTCTAGCTATGCTGGATAAACCAAGTCGTGGTCAGGTTTACTTGAATGGAACTGACACCGCAACCATTAAAAATTCACAGGCCTCTAGCTTCCGTCGTGAAAAGTTGGGCTTTGTCTTCCAAGACTTTAACTTGCTAGATACTCTATCTGTAAAGGACAATATCTTGCTTCCGCT (double strand) [bceAB promoter fragment]
- binding result: binds
